A mixed list of measured activities; the numbers were collected in NIAID ChemDB.

Common to all: enzyme or target tests; agent: HIV-1; protein: Protease; measure: inhibition

Neighbouring rows are from separate reports. Percent inhibition refers to the dose given; in toxicity tests it is the harm to the cells. An empty or dashed field is not shown.

SMILES,read by,dose,value
CC[C@H](C)[C@H](NC(=O)[C@H](Cc1ccccc1)NCC(O)[C@H](Cc1ccccc1)NC(=O)OC(C)(C)C)C(=O)N[C@@H](Cc1ccccc1)C(=O)OC,-,10 µM,91%
CC(C)(C)NC(=O)[C@@H]1Cc2ccccc2CN1C(=O)[C@@H](O)[C@H](Cc1ccccc1)NC(=O)[C@H](CC(N)=O)NC(=O)OCc1ccccc1,-,0.05 µM,10.8%
CCCNC(=O)[C@@H]1O[C@]2(c3ccccc3)CN(C(c3ccccc3)c3ccccc3)C(=O)[C@H]1O2,FRET,10 µM,0%
CCCC1(CCC)OC(=O)C(C(c2cccc(NS(=O)(=O)c3cn(C)cn3)c2)C(C)(C)C)=C1O,fluorescence,3.3 µM,100%
CCCCNC(=O)[C@@H]1O[C@@H]2CN(Cc3ccccc3)C(=O)[C@H]1O2,FRET,10 µM,0%
CC(C)(C)OC(=O)N[C@@H](CC(N)=O)C(=O)N[C@@H](Cc1ccccc1)[C@@H](O)C(=O)NCC1CCCCC1,-,1000 µM,67.2%
CCOC(=O)[C@@]1(C)CC[C@]2(C)CC[C@]3(C)C(=CC(=O)[C@@H]4[C@@]5(C)CC/C(=N\OCC6CCOCC6)C(C)(C)[C@@H]5CC[C@]43C)[C@@H]2C1,substrate cleavage / fluorescence,1000 µg/mL,46.8%
CC(C)CCN(C[C@@H](O)[C@H](Cc1ccccc1)NC(=O)OCc1ccccc1)S(=O)(=O)C(F)(F)F,-,10 µM,76%
CCCC1(CCC)OC(=O)C(C(c2cccc([N+](=O)[O-])c2)C2CC2)=C1O,fluorescence,3.3 µM,100%
C=CC[C@H](NC(=O)COc1cccc2ccccc12)C(=O)N[C@@H](Cc1ccccc1)[C@H](O)C(=O)N1CSC[C@H]1C(=O)NC(C)(C)C,-,0.05 µM,92.7%
CC(C)C[C@@H](CC[C@@H](Cc1ccccc1)C(=O)N[C@H](C(=O)N[C@H](C(N)=O)C(C)C)C(C)C)NC(=O)[C@@H](NC(=O)[C@@H](N)C(C)C)C(C)C,-,10 µM,40%
COc1cc(O)cc(O)c1C(=O)/C=C/c1ccccc1,HPLC,100 µM,47.6%
CC[C@H](C)[C@H](NC(=O)[C@H](Cc1ccccc1)NC[C@H](Cc1ccccc1)NC(=O)OC(C)(C)C)C(=O)N[C@@H](Cc1ccccc1)C(=O)OC,-,10 µM,22%
CO[C@@H]([C@@H](CC(C)[C@@H]1CC[C@]2(C)C3=CCC4C(C)(C)C(OC(=O)CC(C)(C)C(=O)O)CC[C@]4(C)C3CC[C@@]12C)OC(C)(C)C)C(C)(C)O,substrate cleavage / fluorescence,100 µg/mL,58.1%
COc1cc(O)cc(O)c1C(=O)[C@@H]1[C@H](CC=C(C)C)C(C)=CC[C@H]1c1ccc(O)cc1,HPLC,100 µM,43.1%
CCCCC1(CCCC)OC(=O)C(C(c2ccccc2)C2CC2)=C1O,fluorescence,3.3 µM,100%
CC[C@H](C)[C@H](NC(=O)CN(N)C(=O)[C@H](Cc1ccccc1)NC(=O)OC(C)(C)C)C(=O)N[C@@H](Cc1ccccc1)C(=O)OC,-,10 µM,3%
CC(C)CNC(=O)[C@@H](NC(=O)[C@H](Cc1ccccc1)NC(=O)[C@H](O)[C@H](Cc1ccccc1)NC(=O)[C@@H](NC(=O)OCc1ccccc1)C(C)C)C(C)C,-,5 µM,16.6%
CC[C@H](C)C(NC(=O)CNCC(O)[C@H](Cc1ccccc1)NC(=O)OCc1ccccc1)C(=O)N[C@@H](Cc1ccccc1)C(=O)OC,-,10 µM,3%
COc1cc(O)cc(O)c1C(=O)CCc1ccccc1,HPLC,100 µM,2.7%
COC(=O)[C@@H](NC(=O)CCCCCC(=O)N[C@H](C(=O)OC)C(C)C)C(C)C,absorbance,10 µM,<10%
CCC1(Cc2ccccc2)OC(=O)C(C(c2ccccc2)C2CC2)=C1O,fluorescence,10 µM,100%
CC(C)COC(=O)[C@H](Cc1ccc(OCc2ccccc2)cc1)NC(=O)C(=O)N[C@@H](Cc1ccc(OCc2ccccc2)cc1)C(=O)OCC(C)C,absorbance,10 µM,24%
CC[C@H](C)[C@H](NC(=O)[C@@H]1CCCN1C(=O)[C@@H](O)[C@H](Cc1ccccc1)NC(=O)[C@H](CO)NC(=O)Cc1ccccc1)C(=O)N[C@H](C(N)=O)C(C)C,-,5 µM,19.1%
O=C(c1ccccc1)N(Cc1cc2ccccc2[nH]c1=O)C1CCCCC1,substrate cleavage / fluorescence,20 µM,-17.9%
CCOC(=O)[C@@]1(C)CC[C@]2(C)CC[C@]3(C)C(=CC(=O)[C@@H]4[C@@]5(C)CC/C(=N\OCc6ccccc6)C(C)(C)[C@@H]5CC[C@]43C)[C@@H]2C1,substrate cleavage / fluorescence,1000 µg/mL,11.8%
CO[C@@H]([C@@H](CC(C)[C@@H]1CC[C@]2(C)C3=CCC4C(C)(C)C(OC(=O)CC(C)(C)CC(=O)O)CC[C@]4(C)C3CC[C@@]12C)OC(C)(C)C)C(C)(C)O,substrate cleavage / fluorescence,100 µg/mL,48.7%
CC(C)C[C@@H](C(=O)NCCc1ccccc1)N1C[C@@H]2O[C@H](C1=O)[C@H](C(=O)N1CCCCC1)O2,FRET,10 µM,0%
COc1ccc2[nH]c(=O)c(CN(C(=O)c3ccccc3)C3CCCC3)cc2c1,substrate cleavage / fluorescence,20 µM,-20%
CC(=O)O[C@H](CC(C)[C@@H]1CC[C@]2(C)C3=CCC4C(C)(C)C(=O)CC[C@]4(C)C3CC[C@@]12C)[C@H](OC(C)=O)C(C)(C)OC(C)=O,substrate cleavage / fluorescence,100 µg/mL,35.5%
CCCC1(CCC)OC(=O)C(C(c2cccc(NS(=O)(=O)c3ccc(C#N)cc3)c2)C2CC2)=C1O,fluorescence,3.3 µM,100%
CC(C)COC(=O)[C@H](Cc1ccccc1)NC(=O)/C=C\C(=O)N[C@@H](Cc1ccccc1)C(=O)OCC(C)C,absorbance,10 µM,16%
O=C(/C=C/c1ccc(O)cc1)C1=C(O)/C(=C/c2ccc(O)cc2)CCC1,fluorescence,10 µM,55.5%
CC(C)COC(=O)[C@H](Cc1ccccc1)NC(=O)C[C@H](O)C(=O)N[C@@H](Cc1ccccc1)C(=O)OCC(C)C,absorbance,10 µM,29%
O=C1OC(CCCc2ccccc2)(CC2CC2)C(O)=C1C(c1ccccc1)C1CC1,fluorescence,0.37 µM,100%
CC[C@H](C)COC(=O)[C@@H](Cc1ccccc1)NC(=O)C(=O)N[C@H](Cc1ccccc1)C(=O)OC[C@@H](C)CC,absorbance,10 µM,<10%
COc1cccc2cc(CNC3CCCC3)c(=O)[nH]c12,substrate cleavage / fluorescence,20 µM,-18.3%
CCOC(=O)[C@@]1(C)CC[C@]2(C)CC[C@]3(C)C(=CC(=O)[C@@H]4[C@@]5(C)CC/C(=N\OCc6cccc(C#N)c6)C(C)(C)[C@@H]5CC[C@]43C)[C@@H]2C1,substrate cleavage / fluorescence,1000 µg/mL,28.1%
CO[C@@H]([C@@H](CC(C)[C@@H]1CC[C@]2(C)C3=CCC4C(C)(C)C(=O)CC[C@]4(C)C3CC[C@@]12C)OC(C)(C)C)C(C)(C)O,substrate cleavage / fluorescence,100 µg/mL,17.1%
CCOC(=O)[C@@]1(C)CC[C@]2(C)CC[C@]3(C)C(=CC(=O)[C@@H]4[C@@]5(C)CC/C(=N\OCc6ccc(Cl)c(Cl)c6)C(C)(C)[C@@H]5CC[C@]43C)[C@@H]2C1,substrate cleavage / fluorescence,1000 µg/mL,7.38%
CC[C@H](C)[C@H](NC(=O)C[C@H](O)[C@H](Cc1ccccc1)NC(=O)OC(C)(C)C)C(=O)N[C@@H](Cc1ccccc1)C(=O)OC,-,10 µM,74%
COC(=O)[C@@H](NC(=O)[C@H](Cc1ccccc1)NC(=O)C(=O)N[C@@H](Cc1ccccc1)C(=O)N[C@H](C(=O)OC)C(C)C)C(C)C,absorbance,10 µM,<10%
CS(=O)(=O)C[C@H](NC(=O)COc1cccc2ccccc12)C(=O)N[C@@H](Cc1ccccc1)[C@H](O)C(=O)N1CSC[C@H]1C(=O)NCC(N)=O,-,0.05 µM,22.1%
COC(=O)[C@@H](NC(=O)CCC(=O)CCC(=O)N[C@H](C(=O)OC)C(C)C)C(C)C,absorbance,10 µM,<10%
CCOC(=O)[C@@]1(C)CC[C@]2(C)CC[C@]3(C)C(=CC(=O)[C@@H]4[C@@]5(C)CC/C(=N\OCc6cccc(F)c6)C(C)(C)[C@@H]5CC[C@]43C)[C@@H]2C1,substrate cleavage / fluorescence,1000 µg/mL,12.5%
CC(C)(C)NC(=O)[C@@H]1CCCN1C(=O)[C@@H](O)[C@H](CC1CCCCC1)NC(=O)[C@H](CC(N)=O)NC(=O)COc1cccc2ccccc12,-,0.05 µM,79.5%
O=C([C@@H]1O[C@@H]2CN(Cc3ccccc3)C(=S)[C@H]1O2)N1CCCCC1,FRET,10 µM,0%
CC[C@@H](C)[C@H](NC(=O)CN(CC1CCCCC1)C(=O)[C@H](O)[C@H](Cc1ccccc1)NC(=O)[C@H](CC(N)=O)NC(=O)OC(C)(C)C)C(=O)NCC1CCCCC1,-,1000 µM,12.2%
COc1cccc2cc(CNC3CCCCC3)c(=O)[nH]c12,substrate cleavage / fluorescence,20 µM,-7.7%
CC(C)(C)NC(=O)[C@@H]1CSCN1C(=O)[C@@H](O)[C@H](Cc1ccccc1)NC(=O)[C@H](CC(N)=O)NC(=O)OCc1ccccc1,-,5 µM,98.7%
CCCC1(CCC)OC(=O)C(C(c2cccc(N)c2)C2CC2)=C1O,fluorescence,3.3 µM,100%

4 of the rows above, restated:

SMILES,read by,dose,value
COc1ccc2[nH]c(=O)c(CN(C(=O)c3ccccc3)C3CCCC3)cc2c1,substrate cleavage / fluorescence,20 µM,-20%
COc1cc(O)cc(O)c1C(=O)[C@@H]1[C@H](CC=C(C)C)C(C)=CC[C@H]1c1ccc(O)cc1,HPLC,100 µM,43.1%
CC(C)COC(=O)[C@H](Cc1ccc(OCc2ccccc2)cc1)NC(=O)C(=O)N[C@@H](Cc1ccc(OCc2ccccc2)cc1)C(=O)OCC(C)C,absorbance,10 µM,24%
COc1cccc2cc(CNC3CCCCC3)c(=O)[nH]c12,substrate cleavage / fluorescence,20 µM,-7.7%